Pooled drug test results. Numbers come from NIAID ChemDB, via PubChem.

All rows: whole-cell or culture tests; agent: Herpes simplex virus 1; measure: EC50

An empty or dashed field is not shown.

structure,strain or isolate,cell line,read by,value
Nc1ncnc2c1ncn2[C@@H]1O[C@H](CO)[C@@H](O)[C@@H]1O,KOS,T-21,cytopathic effect,7 µg/mL
Nc1nc2c(ncn2COCCO)c(=O)[nH]1,13231WL KOS (acyclovir-susceptible),HFF,cytopathic effect,1 µg/mL
O=c1c2ncn(COCCO)c2nc2[nH]c(-c3ccc(C(F)(F)F)cc3)cn12,KOS,HEL,cytopathic effect,48 µg/mL
CCCc1cn([C@H]2C[C@H](O)[C@@H](CO)O2)c(=O)[nH]c1=O,KOS,Primary rabbit kidney cells,cytopathic effect,1 µg/mL
O=c1[nH]c(=O)n([C@@H]2O[C@H](CO)[C@@H](O)[C@@H]2O)cc1/C=C/Br,KOS,T-21,cytopathic effect,0.01 µg/mL
CCOC(=O)C1=CN(COCCOC(C)=O)S(=O)(=O)N=C1N,KOS,E6SM,,>400 µg/mL
Nc1nc2c(ncn2COC(CO)CO)c(=O)[nH]1,KOS,HEL,cytopathic effect,0.007 µM
O=c1[nH]c(=O)n([C@H]2C[C@H](O)[C@@H](CO)O2)cc1I,KOS,BALB/3T3,cytopathic effect,0.1 µg/mL
Nc1ncnc2c1ncn2C[C@@H](CO)OCP(=O)(O)O,McIntyre,ESM,cytopathic effect,2 µg/mL
CC(C)C[C@H](NC(=O)[C@@H]1O[C@H]1C(=O)O)C(=O)NCCCCN=C(N)N,Fukuda,CV-1,plaque count,>40 µM
CC(=O)OCCOCN1C=CC(=O)N(COCCOC(C)=O)S1(=O)=O,McIntyre,E6SM,,>400 µg/mL
Cn1cc(C(=O)NCc2ccc(Cl)cc2)c(=O)c2cc(CN3CCOCC3)ccc21,PAA/R acyclovir-resistant,HFF,plaque count,0.6 µM
O=c1[nH]cnc2c1ncn2C/C=C(/CO)c1ccccc1,,CCL18,cytopathic effect,>100 µg/mL
O=c1c2ncn(COCCO)c2nc2[nH]c(-c3ccccc3)c(Cc3ccc(F)cc3)n12,TK-,HEL,cytopathic effect,>16 µg/mL
Cn1cc(C(=O)NCc2ccc(Cl)cc2)c(=O)c2cc(/C=C\CO)cc(F)c21,KOS-M2,VERO,plaque count,>20 µM
CCCCCCCC/C=C/CCCCCCCC(=O)OCC(CO)OCn1cnc2c(=O)[nH]c(N)nc21,HU-10,HEL,cytopathic effect,>100 µM
C#Cc1cn([C@H]2C[C@H](O)[C@@H](CO)O2)c(=O)[nH]c1=O,KOS,HSF,cytopathic effect,0.2 µg/mL
CCc1cn([C@H]2C[C@H](O)[C@@H](CO)O2)c(=O)[nH]c1=O,McIntyre,PRK,cytopathic effect,1 µg/mL
C/C=C/Cc1cn([C@H]2C[C@H](O)[C@@H](CO)O2)c(=O)[nH]c1=O,S3,BHK-21,cytopathic effect,10 µg/mL
CCCc1cn([C@H]2C[C@H](O)[C@@H](CO)O2)c(=O)[nH]c1=O,B2006 (TK-),HELA BU,plaque count,>10 µM
O=C(O)CP(=O)(O)O,PAA-resistant,VERO,plaque count,166.8 µg/mL
Nc1nc2c(ncn2CCCC(CO)CO)c(=O)[nH]1,C1 (101),VERO,plaque count,1.5 µM
CC1=CC(CO)(CO)C[C@H]1n1ccc(N)nc1=O,,CCL-81,cytopathic effect,>100 µg/mL
[O-][n+]1onc2ncnc(N3CC[N+]4(CC3)CC[N+]3(CCN(c5ncnc6no[n+]([O-])c56)CC3)CC4)c21,K1,GMK,plaque count,8.6 µM
Nc1ncnc2c1ncn2C/C=C(/CO)c1ccccc1,,CCL18,cytopathic effect,>100 µg/mL
O=c1[nH]c(=O)n([C@H]2C[C@H](O)[C@@H](CO)O2)cc1I,KOS,Primary rabbit kidney cells,cytopathic effect,0.2 µg/mL
O=c1[nH]c(=O)n([C@H]2C[C@H](O)[C@@H](CO)O2)cc1C(F)(F)F,,Human skin fibroblasts,cytopathic effect,1.3 µM
CC(C)CC(=O)N[C@H](C(=O)N[C@H](C(=O)N[C@@H](CC(C)C)[C@@H](O)CC(=O)N[C@@H](C)C(=O)N[C@@H](CC(C)C)[C@@H](O)CC(=O)O)C(C)C)C(C)C,Fukuda,CV-1,plaque count,>40 µM
C/C(=C\Cn1cnc2c(Cl)ncnc21)CO,,CCL18,cytopathic effect,>100 µg/mL
COc1nc(=O)n([C@H]2C[C@H](O)[C@@H](CO)O2)cc1/C=C/Cl,KOS,PRK,cytopathic effect,0.2 µg/mL
O=c1[nH]c(=O)n([C@H]2C[C@H](O)[C@@H](CO)O2)cc1/C=C/Br,KOS,HSF,cytopathic effect,0.01 µg/mL
CC(=O)OCCOCN1C=C(C#N)C(N)=NS1(=O)=O,VMW1837 (TK-),E6SM,,>400 µg/mL
C/C=C/c1cn([C@H]2C[C@H](O)[C@@H](CO)O2)c(=O)[nH]c1=O,KOS,HELA BU,plaque count,<10 µM
Nc1ccn(C[C@H]2COP(=O)(O)CO2)c(=O)n1,,MRC-5,,2.3 µM
CSc1nsc(SC)c1C#N,F strain,VERO,plaque count,>12 µM
[N-]=[N+]=N[C@@H]1[C@@H](OP(=O)(O)OC[C@H]2O[C@@H](n3cnc4c(N)ncnc43)[C@H](OP(=O)(O)OCCOCn3cnc4c(=O)[nH]c(N)nc43)[C@H]2N=[N+]=[N-])[C@H](n2cnc3c(N)ncnc32)O[C@@H]1CO,F,PRK,cytopathic effect,2 µg/mL
CCCCCCCC/C=C/CCCCCCCC(=O)O,HU-10,HEL,cytopathic effect,>100 µM
C/C(=C\Cn1cnc2c(=O)[nH]c(N)nc21)CO,,CCL18,cytopathic effect,32.7 µg/mL
CCCCCCCCCCCCCCCCCCOCCCOP1(=O)CO[C@@H](Cn2ccc(N)nc2=O)CO1,,MRC-5,,0.35 µM
Nc1ccn(C[C@@H](CO)OCP(=O)(O)O)c(=O)n1,E-115,HFF,plaque count,2.7 µg/mL
Cc1c(-c2ccc(F)cc2)[nH]c2nc3c(ncn3COCCO)c(=O)n12,McIntyre,HEL,cytopathic effect,0.384 µg/mL
O=C1C=CN(COCCO)S(=O)(=O)N1COCCO,McIntyre,E6SM,,>400 µg/mL
Cc1cn([C@@H]2O[C@H](CO)[C@H]2CO)c(=O)[nH]c1=O,SC16-S1 (TK altered),HFF,plaque count,34 µg/mL
Cc1cn([C@@H]2O[C@H](CO)[C@@H](O)[C@@H]2O)c(=O)[nH]c1=O,KOS,VERO,plaque count,11.6 µM
CSc1nsc(-c2cccc(Cl)c2)c1C#N,F strain,VERO,plaque count,>10 µM
Nc1ncnc2c1ncn2[C@@H]1O[C@H](CO)[C@@H](O)[C@H]1OP(=O)(O)OC[C@H]1O[C@@H](n2cnc3c(N)ncnc32)[C@H](OP(=O)(O)OC[C@H]2O[C@@H](n3cc(F)c(=O)[nH]c3=O)C[C@@H]2O)[C@@H]1O,McIntyre,PRK,cytopathic effect,20 µg/mL
C/C(O)=C1\C(=N)N(COCCO)S(=O)(=O)N=C1N,McIntyre,E6SM,,>400 µg/mL
CSc1nsc(-c2ccc(OCc3ccccc3)cc2)c1C#N,F strain,VERO,plaque count,>50 µM
CC[C@@H](N(C)C(=O)[C@@H](NC(=O)[C@@H](CC(=O)[C@@H](NC(=O)[C@H](C(C)C)N(C)C(=O)[C@H](C)CC1CCCCC1)C(C)(C)C)CC(=O)C(C)(C)C)C1(C(=O)O)CCCC1)C(C)(C)C,,BHK-21,ELISA,0.4 µM
Nc1nc2c(ncn2CC(CO)CCO)c(=O)[nH]1,C42,BHK,plaque count,1.4 µM
N#CC1=CN(COCCO)S(=O)(=O)N=C1N,McIntyre,E6SM,,>400 µg/mL
Cc1cccc(C)c1N(CC(=O)Nc1ccc(-c2ncon2)cc1)C(C)C1CCS(=O)(=O)CC1,KOS,Vero Cells + HEF cells,plaque count,0.01 µM
N#Cc1cn(C2O[C@H](CO)[C@@H](O)[C@H]2O)c(=O)[nH]c1=O,,Human skin fibroblasts,cytopathic effect,>700 µM
Nc1nc2c(ncn2CCC(CO)CO)c(=O)[nH]1,511,3T6,plaque count,0.08 µg/mL
O=C(NCc1ccc(Cl)cc1)c1cn2c3c(cc(CN4CCOCC4)cc3c1=O)OC(c1cccnc1)C2,L5047716 ACV resistant,HFF,plaque count,4.7 µM
CCCc1cn([C@H]2C[C@H](O)[C@@H](CO)O2)c(=O)[nH]c1=O,KOS,HSF,cytopathic effect,2.6 µg/mL
Nc1nc2c(ncn2CCC(CO)CO)c(=O)[nH]1,KOS,VERO,plaque count,1.07 µM
CC1=CC(CO)(CO)C[C@H]1n1cnc2c(N)ncnc21,,CCL-81,cytopathic effect,>100 µg/mL
Nc1ccn(C[C@@H](CO)OCP(=O)(O)O)c(=O)n1,,MRC-5,,3.3 µM
CC(=O)OCCOCN1C(N)=CC(N)=NS1(=O)=O,McIntyre,E6SM,,>400 µg/mL
[O-][n+]1onc2ncnc(N3CC[N+]4(CC3)CC[N+]3(CCN(c5ncnc6no[n+]([O-])c56)CC3)CC4)c21,KUPKA,GMK,plaque count,8.1 µM
Cc1cccc(C)c1N(CC(=O)Nc1ccc(-c2ncon2)cc1)C(=O)C1CCS(=O)(=O)CC1,1 (KOS),HEF,plaque count,0.036 µM
Nc1ccn([C@@H]2O[C@H](CO)[C@@H](O)[C@@H]2O)c(=O)n1,KOS,HSF,cytopathic effect,0.04 µg/mL
O=c1[nH]c(=O)n([C@H]2C[C@H](O)[C@@H](CO)O2)cc1/C=C/Br,F,PRK,cytopathic effect,0.02 µg/mL
O=c1[nH]c(=O)n([C@H]2C[C@H](O)[C@@H](CO)O2)cc1I,KOS-M1,VERO,plaque count,0.8 µM
Cc1c(-c2ccc(C(F)(F)F)cc2)[nH]c2nc3c(ncn3COCCO)c(=O)n12,KOS,HEL,cytopathic effect,9.6 µg/mL
N#Cc1c(-c2ccccc2)nsc1Cl,F strain,VERO,plaque count,>20 µM
CCc1cn([C@H]2C[C@H](O)[C@@H](COP(=O)(O)O)O2)c(=O)[nH]c1=O,B2006 (TK-),HEP-2,cytopathic effect,>820 µg/mL

Repeating the final 9 entries:

structure,strain or isolate,cell line,read by,value
CC(=O)OCCOCN1C(N)=CC(N)=NS1(=O)=O,McIntyre,E6SM,,>400 µg/mL
[O-][n+]1onc2ncnc(N3CC[N+]4(CC3)CC[N+]3(CCN(c5ncnc6no[n+]([O-])c56)CC3)CC4)c21,KUPKA,GMK,plaque count,8.1 µM
Cc1cccc(C)c1N(CC(=O)Nc1ccc(-c2ncon2)cc1)C(=O)C1CCS(=O)(=O)CC1,1 (KOS),HEF,plaque count,0.036 µM
Nc1ccn([C@@H]2O[C@H](CO)[C@@H](O)[C@@H]2O)c(=O)n1,KOS,HSF,cytopathic effect,0.04 µg/mL
O=c1[nH]c(=O)n([C@H]2C[C@H](O)[C@@H](CO)O2)cc1/C=C/Br,F,PRK,cytopathic effect,0.02 µg/mL
O=c1[nH]c(=O)n([C@H]2C[C@H](O)[C@@H](CO)O2)cc1I,KOS-M1,VERO,plaque count,0.8 µM
Cc1c(-c2ccc(C(F)(F)F)cc2)[nH]c2nc3c(ncn3COCCO)c(=O)n12,KOS,HEL,cytopathic effect,9.6 µg/mL
N#Cc1c(-c2ccccc2)nsc1Cl,F strain,VERO,plaque count,>20 µM
CCc1cn([C@H]2C[C@H](O)[C@@H](COP(=O)(O)O)O2)c(=O)[nH]c1=O,B2006 (TK-),HEP-2,cytopathic effect,>820 µg/mL

Neighbouring rows are from separate reports. ECn: concentration that inhibits the pathogen or its effect by n%.